The exact form of at least one protein or probe is not confirmed. Tags and fusion partners may be left off the protein sequences shown.
Molecular target: T1, HupA6xHis (Clostridium difficile 630Δerm) (UniProt Q180Z4)
T1 sequence (looked up, limits assumed): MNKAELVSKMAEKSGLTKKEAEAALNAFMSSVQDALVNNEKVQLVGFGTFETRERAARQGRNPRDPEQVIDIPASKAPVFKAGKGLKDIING
Assay: EMSA
Details: 12 mM Mg2+, 2.5 mM ATP, no notable difference in affinity between G+C contents

Row | Sequence | binding signal (% DNA bound at 2 µM protein)
1 | CATCAGGCAAGAGTAGTCACTGTGTAGCTCGTGGATGC (double strand) [oAF63/oAF64, 52.6% G+C] | 70
2 | CGCCAGGCCAGGGCTGTCACTGTGCAGCTCGTGGACGC (double strand) [oAF61/oAF62, 71.1% G+C] | 70

Reference: doi:10.1101/426809
